Results of unrelated studies side by side (data: NIAID ChemDB).

Common to all: growth or infection tests; organism: Hepatitis C virus

Blank or dashed fields: not listed here. a–b is a range or a potency band. ECn is the concentration giving n% inhibition of infection, replication or growth. Lines come from different laboratories, so protocols vary.

| smiles | measure | conditions | read by | strain or isolate | mutations | cell line | value |
|---|---|---|---|---|---|---|---|
| Cc1ccccc1C(=O)Nc1cccc(Cn2nc(C(N)=O)c3ccccc32)c1 | EC50 |  | luciferase / replicon | J399EM | Luciferase reporter gene | Huh7.5.1 | 0.032 µM |
| N#Cc1c(-c2ccccc2)nc(SCc2nc3ccccc3[nH]2)[nH]c1=O | EC50 |  | replicon / PCR |  |  | Huh7 | 0.345 µM |
| CC(C)OC(=O)[C@H](C)N[P@](=O)(OC[C@H]1O[C@@](C#N)(c2ccc3c(N)ncnn23)[C@](C)(O)[C@@H]1OC(=O)C(C)C)Oc1ccccc1 | EC50 |  | luciferase | 4a ED43 |  | Huh7 replicon | 0.11 µM |
| C=CC[C@@H]1/C=C(/C)C[C@H](C)C[C@H](OC)[C@H]2O[C@@](O)(C(=O)C(=O)N3CCCC[C@H]3C(=O)O[C@H](/C(C)=C/[C@@H]3CC[C@@H](O)[C@H](OC)C3)[C@H](C)[C@@H](O)CC1=O)[C@H](C)C[C@@H]2OC | EC50 |  |  |  |  | Huh7 | 7.5 µM |
| CC[C@H]1C[C@]1(NC(=O)[C@@H]1C[C@@H]2CN1C(=O)[C@H](C(C)(C)C)NC(=O)OCC(C)(C)CCCCc1cccc3c1CN(C3)C(=O)O2)C(=O)NS(=O)(=O)C1CC1 | EC50 |  | antigen | HK6a |  | Huh7.5 | 0.035 µM |
| CN(C)CC(C)(C)CN1c2ccccc2Sc2ccccc21.Cl | EC50 |  | PCR | JFH-1 |  | Huh7-1 | 6.9 µM |
| O=C(O)c1c(-c2ccc(Cl)cc2)nc(SCc2nc3ccccc3[nH]2)[nH]c1=O | EC50 |  | replicon / PCR |  |  | Huh7 | 0.356 µM |
| O=C(O)c1cccc([As]=[As]c2cccc(C(=O)O)c2)c1 | EC50 |  | PCR | sg2a (JFH) |  | Huh7-1 | 0.5 µM |
| COc1ccc2c(O[C@@H]3C[C@H]4C(=O)N[C@]5(C(=O)NS(=O)(=O)C6CC6)C[C@H]5/C=C\CCCCN(C)C(=O)[C@@H]4C3)cc(-c3nc(C(C)C)cs3)nc2c1C | EC50 |  | antigen | HK6a |  | Huh7.5 | 0.096 µM |
| CO[C@H]1[C@@H](O)[C@@H](C)O[C@H](O[C@H]2[C@H](Oc3cccc4c(O)c5c(=O)oc6ccc(C)c7c(=O)oc(c34)c5c67)O[C@H](C)[C@H](O)[C@@H]2O)[C@@H]1O | EC50 |  | PCR | JFH-1 |  | Huh7-1 | 1.4 µM |
| Fc1ccccc1-c1nc2ccn(Cc3ccc(-c4ccc(C(F)(F)F)cc4C(F)(F)F)nn3)cc-2n1 | EC50 |  | luciferase | Con1 |  | 1C | 0.0014 µM |
| COc1ccc(C(=O)Nc2cccc(Cn3nc(C(N)=O)c4ccccc43)c2)cc1 | EC50 |  | fluorescence | J399EM |  | Huh7.5.1 | 0.035 µM |
| CNC(=O)c1c(-c2ccc(F)cc2)oc2cc(N(CCO)S(C)(=O)=O)c(C3CC3)cc12 | EC50 |  | luciferase / replicon | GT3a |  | Huh7.5 | 0.0399 µM |
| Cc1cc(N2CCCCC2)nc2ccc(Cc3ccc4nc(N5CCCCC5)cc(C)c4c3)cc12 | EC50 |  | PCR | sg2a (JFH) |  | Huh7-1 | 5.4 µM |
| O=C(O)c1cc2c(s1)c(C1CCCCC1)c(-c1ccc(Oc3ccccc3)cc1)n2CC(=O)N1CCOCC1 | EC50 |  |  |  |  | Huh7 | 2.6 µM |
| C[C@H](Br)C(=O)c1ccc2cc(Br)c3ccccc3c2c1 | EC50 |  | PCR | JFH-1 |  | Huh7-1 | 33 µM |
| N#Cc1c(-c2ccccc2-c2ccco2)nc(SCc2nc3ccccc3[nH]2)[nH]c1=O | EC90 |  | replicon / PCR |  |  | Huh7 | 0.432 µM |
| CNC(=O)c1c(-c2ccc(F)cc2)oc2cc(N(CCO)S(C)(=O)=O)c(C3CC3)cc12 | EC50 |  | luciferase | 3a |  | Huh7 | 0.0298 µM |
| CCC[C@H](NC(=O)[C@@H]1[C@H]2CCC[C@H]2CN1C(=O)[C@@H](NC(=O)[C@@H](NC(=O)c1cnccn1)C1CCCCC1)C(C)(C)C)C(=O)C(=O)NC1CC1 | EC50 |  | luciferase / reporter gene | genotype 1b |  | Huh7.5 | 0.1273 µM |
| CC[C@@H]1/C=C(\C)C[C@H](C)C[C@H](OC)[C@H]2O[C@@](O)(C(=O)C(=O)N3CCCC[C@H]3C(=O)O[C@H](/C(C)=C/[C@H]3CC[C@H](O)[C@H](OC)C3)[C@H](C)[C@@H](O)CC1=O)[C@H](C)C[C@@H]2OC | EC50 |  |  |  |  | Huh7 | 40 µM |
| CCCCn1cnc2c(c(CC#N)nn2-c2ccccc2)c1=N | EC50 |  | PCR | sg2a (JFH) |  | Huh7-1 | 7.3 µM |
| CN(C)Cc1c(C(=O)O)sc2c(C3CCCCC3)c(-c3ccccc3)[nH]c12 | EC50 |  |  |  |  | Huh7 | 3.4 µM |
| C[C@@]1(O)[C@H](O)[C@@H](CO)O[C@H]1n1cnc2c(N)ncnc21 | EC50 |  | luciferase | 1a H77 |  | Huh7 replicon | 0.2 µM |
| COc1ccc2c(O[C@@H]3C[C@H]4C(=O)N[C@]5(C(=O)O)C[C@H]5/C=C\CCCCC[C@H](NC(=O)OC5CCCC5)C(=O)N4C3)cc(-c3csc(NC(C)C)n3)nc2c1 | EC50 |  | PCR |  |  | Huh 9-13 | >22 µM |
| Fc1ccccc1-c1nc2ccn(Cc3ccc(-c4ccc(C(F)(F)F)cc4C(F)(F)F)nn3)cc-2n1 | EC50 |  | luciferase | 1a |  | Huh7 | 0.0159 µM |
| C=C[C@@H]1C[C@]1(NC(=O)[C@@H]1C[C@@H](Oc2nccc3ccc(Br)cc23)CN1C(C)=O)C(=O)NS(=O)(=O)C1CC1 | EC50 |  | luciferase | 1b A156S |  |  | >3 µM |
| COC(=O)c1ccc(C(=O)Nc2cccc(Cn3nc(C(N)=O)c4ccccc43)c2)cc1 | EC50 |  | fluorescence | J399EM |  | Huh7.5.1 | 0.04 µM |
| C[C@@]1(O)[C@H](O)[C@@H](CO)O[C@H]1c1cnc2c(=O)[nH]c(N)nn12 | EC50 |  | luciferase | GT-1b Con1 |  | Huh7 | >100 µM |
| Fc1ccccc1-c1nc2ccn(Cc3ccc(-c4ccc(C(F)(F)F)cc4C(F)(F)F)nn3)cc-2n1 | EC50 |  | luciferase / replicon | GT2a |  | Huh7 | 10.96 µM |
| CCC[C@H](NC(=O)[C@@H]1[C@H]2CCC[C@H]2CN1C(=O)[C@@H](NC(=O)[C@@H](NC(=O)c1cnccn1)C1CCCCC1)C(C)(C)C)C(=O)C(=O)NC1CC1 | EC50 |  | PCR |  |  | Huh 9-13 | >24 µM |
| C[C@@]1(O)[C@H](O)[C@@H](CO)O[C@H]1n1cnc2c(=O)[nH]c(N)nc21 | EC50 | 24 h |  |  |  | Huh7 | 4.2 µM |
| COc1ccc(-c2c(C3CCCCC3)c3sc(C(=O)O)cc3n2CC(=O)N(C)C2CCN(C(C)C)C2)cc1 | EC50 |  |  |  |  | Huh7 | 0.4 µM |
| O=C(O)c1c(-c2ccccc2O)nc(NCc2nc3ccccc3[nH]2)[nH]c1=O | EC50 |  | replicon / PCR |  |  | Huh7 | 0.657 µM |
| C[C@@]1(O)[C@H](O)[C@@H](CO)O[C@H]1n1cnc2c(N)ncnc21 | EC50 |  | luciferase | 2b |  | Huh7 | 0.2935 µM |
| CC(C)N1CCC(N(C)C(=O)Cn2c(-c3ccccc3)c(C3CCCCC3)c3sc(C(=O)O)cc32)C1 | EC50 |  |  |  |  | Huh7 | 0.55 µM |
| C[C@@]1(O)[C@H](O)[C@@H](CO)O[C@H]1c1ccc2c(N)ncnn12 | EC50 |  | PCR | GT1a |  | Huh7.5 | 0.76 µM |
| NC(=O)c1nn(Cc2cccc(NC(=O)c3ccccc3[N+](=O)[O-])c2)c2ccccc12 | EC50 |  | fluorescence | J399EM |  | Huh7.5.1 | 0.739 µM |
| [N-]=[N+]=N[C@]1(CO)O[C@@H](n2ccc(N)nc2=O)[C@H](O)[C@@H]1O | EC50 |  | PCR |  |  | HuH6 | >33 µM |
| C[C@@]1(O)[C@H](O)[C@@H](CO)O[C@H]1n1ccc(N)nc1=O | EC50 |  | luciferase / replicon | GT2a |  | Huh7 | 3.765 µM |
| NC(=O)c1nn(Cc2cccc(N)c2)c2ccccc12 | EC50 |  | fluorescence | J399EM |  | Huh7.5.1 | 5–10 µM |

3 of the rows above, restated:

C[C@@]1(O)[C@H](O)[C@@H](CO)O[C@H]1n1cnc2c(N)ncnc21 ; measure: EC50 ; read by: luciferase ; strain or isolate: 1a H77 ; cell line: Huh7 replicon ; value: 0.2 µM
C[C@@]1(O)[C@H](O)[C@@H](CO)O[C@H]1n1cnc2c(N)ncnc21 ; measure: EC50 ; read by: luciferase ; strain or isolate: 2b ; cell line: Huh7 ; value: 0.2935 µM
C[C@@]1(O)[C@H](O)[C@@H](CO)O[C@H]1c1cnc2c(=O)[nH]c(N)nn12 ; measure: EC50 ; read by: luciferase ; strain or isolate: GT-1b Con1 ; cell line: Huh7 ; value: >100 µM